Pooled drug test results. Numbers come from NIAID ChemDB, via PubChem.

All rows: growth or infection tests; organism: Hepatitis C virus; cells: Huh7; read-out: EC50

Rows are shuffled and stem from different studies. Blank or dashed fields: not listed here. ECn: concentration that inhibits the pathogen or its effect by n%. a–b is a range or a potency band.

structure | strain or isolate | method | setting | value
Cc1ccc2nc(Nc3cccc(Cl)c3)sc2c1 | Con1 | PCR |  | 60 µM
NC(=S)Nc1ccc(N2CCc3ccccc3C2)cc1 |  | replicon |  | <1 µM
C=CC[C@](C)(NC(=O)[C@H]1C[C@@H](Oc2nc(-c3nccs3)c(OC)c3ccccc23)CN1C(=O)[C@@H](NC(=O)OC(C)(C)C)C(C)(C)C)C(=O)NS(=O)(=O)C1CC1 | BMS | replicon |  | <0.1 µM
CCc1ccc2oc(-c3ccccc3)c(C(=O)NC)c2c1 |  | replicon |  | <30 µM
C=CC[C@](C)(NC(=O)[C@H]1C[C@@H](Oc2nc(-c3ccoc3)c(OC)c3ccccc23)CN1C(=O)[C@@H](NC(=O)OC(C)(C)C)C(C)(C)C)C(=O)NS(=O)(=O)C1CC1 | BMS | replicon |  | <0.1 µM
Cc1cc(-c2ccccc2O)n(-c2ccccc2[N+](=O)[O-])n1 |  | replicon |  | >19 µM
CNC(=O)c1c(-c2ccc(F)cc2)oc2cc(N3CCOCC3)c(OCc3ccc(OC)cc3)cc12 |  | replicon |  | <1 µM
O=C(NC1(C(=O)Nc2ccc(-c3ccc(C(=O)O)o3)cc2)CCCC1)c1ccc2c(c1)nc(-c1ccoc1)n2C1CCCCC1 |  |  |  | ≤5 µM
N#Cc1c(NCCc2cccs2)s[nH]c1=O |  | replicon |  | >50 µM
CCCCOc1nc(N)nc2ncc(-c3ccc(F)cc3)nc12 |  |  |  | 1–10 µM
COc1ccccc1-c1ccnn1-c1ccccc1[N+](=O)[O-] |  | replicon |  | 3 µM
CN1CCn2c(c(C3CCCCC3)c3ccc(C(=O)O)cc32)-c2ccccc21 |  | replicon | 10% FBS | 0.59 µM
CNC(=O)c1c(-c2ccc(F)cc2)oc2cc(S(=O)(=O)N3CCCC3)c(OC(C)C)cc12 |  | replicon |  | <10 µM
COCCOc1nc(N)nc2ccc(-c3ccc(C(=O)NOC)cc3)nc12 |  | replicon |  | 0.3–1 µM
Nc1nc(N2CCOCC2)c2nc(-c3cccc(Cl)c3)cnc2n1 |  |  |  | 0.3–1 µM
CC(C)CC[C@@]1(C)C(=O)C(C2=NS(=O)(=O)c3cc(NS(C)(=O)=O)ccc3N2)=C(O)c2ccccc21 | 3a | luciferase |  | 3.879 µM
CNC(=O)c1c(-c2ccc(F)cc2)oc2cc(N(Cc3ccc(OC)cc3)S(C)(=O)=O)c(OC(C)C)cc12 |  | replicon |  | <1 µM
O=[N+]([O-])c1ccc(-c2nc(-c3ccc(C(F)(F)F)cn3)no2)c(Cl)c1 |  | replicon |  | 4.7 µM
C=CC[C@](C)(NC(=O)[C@H]1C[C@@H](Oc2nccc3c(SCCC)c(OCC)ccc23)CN1C(=O)[C@@H](NC(=O)OC(C)(C)C)C(C)(C)C)C(=O)NS(=O)(=O)C1CC1 | BMS | replicon |  | <0.1 µM
CCNc1cc2oc(-c3ccc(F)cc3)c(C(=O)NC)c2cc1OC(C)C |  | replicon |  | <1 µM
CC(NC(=O)c1ccc2c(c1)nc(-c1ccoc1)n2C1CCCCC1)C(=O)Nc1cccc(-c2cccc(N)c2)c1 |  |  |  | 5–50 µM
CN(C)C(=O)S(=O)(=O)NC(=O)c1ccc2c(C3CCCCC3)c3n(c2c1)CC(C(=O)N1CCN(c2ccncc2)CC1)=Cc1cccnc1-3 |  | replicon |  | 0.01–1 µM
N#Cc1c(Nc2cc(Cl)c(Cl)c(Cl)c2)s[nH]c1=O |  | replicon |  | <1 µM
CC(C)Oc1nc(N)nc2ncc(-c3ccc(F)cc3)nc12 |  |  |  | 1–10 µM
CNC(=O)c1c(-c2ccc(Br)c(F)c2)oc2ccc(OC(C)C)cc12 |  | replicon |  | <10 µM
CCCCc1ccc(CNC(N)=S)cc1 |  | replicon |  | <1 µM
CC(NC(=O)c1ccc2c(c1)nc(-c1ccoc1)n2C1CCCCC1)C(=O)Nc1ccc(C(=O)O)cc1 |  |  |  | 5–50 µM
COc1cccc(CC(=O)N/N=C/c2ccccc2OS(=O)(=O)c2ccc(Oc3ncc(C(F)(F)F)cc3Cl)nc2)c1 |  | replicon |  | >50 µM
C=C[C@@H]1C[C@]1(NC(=O)[C@@H]1C[C@@H](Oc2nc(-c3ccccc3)cs2)CN1C(=O)[C@@H](NC(=O)OC(C)(C)C)C(C)(C)C)C(=O)NS(=O)(=O)C1CC1 | BMS | replicon |  | 1–10 µM
CCN(C)c1cc2oc(-c3ccc(F)cc3)c(C(=O)NC)c2c(Cl)c1OC |  | replicon |  | <10 µM
CCNC(=O)c1cc(-c2ccc(OC)cc2)nn1-c1ncccc1C(F)(F)F |  | replicon |  | >32 µM
CNC(=O)C1Cc2ccccc2-c2c(C3CCCCC3)c3ccc(C(=O)NC4(CNc5ccc(/C=C/C(=O)O)cc5)CCCC4)cc3n2C1 |  | replicon |  | 0.01–1 µM
CSc1ccc(CC(=O)N/N=C/c2ccccc2OS(=O)(=O)c2ccc(C(F)(F)F)cc2)cc1 |  | replicon |  | <5 µM
CC(C)Oc1nc(N)nc2ccc(-c3ccc(C(=O)NC4CCCCC4)cc3)nc12 |  | replicon |  | >1 µM
COC(=O)/C=C/c1ccc(NC(=O)C2(NC(=O)c3ccc4c(C5CCCCC5)c5n(c4c3)CCCc3nccnc3-5)CCCC2)cc1 |  | replicon |  | 1–10 µM
CNC(=O)c1c(-c2ccc(F)cc2)oc2cc(NS(=O)(=O)C(C)C)c(OC(C)C)cc12 |  | replicon |  | <10 µM
CCCCCCCOc1ccc(NC(N)=S)cc1C(F)(F)F |  | replicon |  | <1 µM
C=C[C@@H]1C[C@]1(NC(=O)[C@@H]1C[C@@H](Oc2nccc3cc(OC)ccc23)CN1C(=O)[C@@H](NC(C)=O)C(C)(C)C)C(=O)NS(=O)(=O)C1CC1 | BMS | replicon |  | 0.1–1 µM
Cc1ccccc1C(Nc1s[nH]c(=O)c1C#N)c1ccc(F)cc1C |  | replicon |  | >50 µM
COc1nc(N)nc2ccc(-c3ccc(C(=O)NC4CC4)cc3)nc12 |  | replicon |  | 0.3–1 µM
O=C(O)c1ccc2c(C3CCCCC3)c3n(c2c1)CC=Cc1ncccc1-3 |  | replicon |  | 1–10 µM
CN(C)CCN1CCn2c(c(C3CCCCC3)c3ccc(C(=O)O)cc32)-c2ccccc21 |  | replicon | 10% FBS | 0.053 µM
O=C(Cc1ccc(Cl)c(Cl)c1)N/N=C/c1ccccc1OS(=O)(=O)c1ccc(C(F)(F)F)cc1 |  | replicon |  | <5 µM
CCOc1nc(N)nc2ncc(-c3ccc(Cl)cc3)nc12 |  |  |  | 0.3–1 µM
COc1ccc(O)c(-c2ccn(-c3nccc(OC)c3OC)n2)c1 |  | replicon |  | >32 µM
CCOc1nc(N)nc2ccc(-c3ccc(C(=O)Nc4ccccc4)cc3)nc12 |  | replicon |  | >1 µM
C=C[C@H]1C[C@@]1(NC(=O)[C@H]1C[C@@H](Oc2nc(-c3ccccc3)cc3ccccc23)CN1C(=O)[C@@H](NC(=O)OC(C)(C)C)[C@@H](C)OCc1ccccc1)C(=O)NS(=O)(=O)C1CC1 | BMS | replicon |  | 0.1–1 µM
COc1cccc(CNc2cccc(CC(=O)N/N=C/c3ccccc3OS(=O)(=O)c3ccc(C(F)(F)F)cc3)c2)c1 |  | replicon |  | >50 µM
Cc1cccc(Nc2nc3ccc(C)cc3s2)c1 | Con1 | PCR |  | >200 µM
CCOc1nc(N)nc2ncc(-c3ccncc3)nc12 |  |  |  | 0.3–1 µM
Cc1ccc2nc(Nc3cccc([N+](=O)[O-])c3)sc2c1 | Con1 | PCR |  | 8 µM
C[C@@H](Oc1cccc(NC(N)=S)c1)c1ccccc1 |  | replicon |  | <1 µM
O=C(NC1(C(=O)O)CCCC1)c1ccc2c(C3CCCCC3)c3n(c2c1)CCCNc1ccccc1C3 |  | replicon |  | 1–10 µM
Nc1nc(N2CCOCC2)c2nc(-c3cccc(OC(F)(F)F)c3)cnc2n1 |  |  |  | <0.3 µM
CNC(=O)c1c(-c2ccc(F)cc2)oc2cc(-c3cc(COC)no3)c(OC(C)C)cc12 |  | replicon |  | 30 µM
C=C[C@@H]1C[C@]1(NC(=O)[C@@H]1C[C@@H](S(=O)(=O)Cc2ccc3ccccc3c2)CN1C(=O)[C@@H](NC(=O)OC(C)(C)C)C(C)(C)C)C(=O)NS(C)(=O)=O | BMS | replicon |  | 1–10 µM
CC(NC(=O)c1ccc2c(c1)nc(-c1ccoc1)n2C1CCCCC1)C(=O)Nc1ccc(-c2ccc(C(=O)O)o2)cc1 |  |  |  | 5–50 µM
Nc1nc(N2CCOCC2)c2nc(-c3cccnc3)cnc2n1 |  |  |  | 0.3–1 µM
COc1ccc(-c2cc(C(=O)O)n(-c3ncccc3C(F)(F)F)n2)cc1 |  | replicon |  | >32 µM
CCCC(NC(=O)[C@@H]1[C@H]2CCC[C@H]2CN1C(=O)[C@@H](NC(=O)[C@@H](NC(=O)c1cnccn1)C(C)(C)C)C(C)(C)C)C(=O)C(=O)NC1CC1 |  | replicon |  | 1.7 µM
CCNC(=O)c1cc(-c2ccc(OC)cc2)nn1-c1ncccc1[N+](=O)[O-] |  | replicon |  | >32 µM
CCCCCCC12CCCC(c3ccc(NC(N)=S)cc3)(CC1)CC2 |  | replicon |  | <1 µM
O=C(NC1(C(=O)Nc2ccc3[nH]c(=S)sc3c2)CCCC1)c1ccc2c(c1)nc(-c1ccoc1)n2C1CCCCC1 |  |  |  | ≤5 µM
COC(=O)CCc1ccc(S(=O)(=O)Oc2ccccc2/C=N/NC(=O)Cc2cccc(OC)c2)cc1 |  | replicon |  | >50 µM
COc1ccc(Nc2nc3ccc(C)cc3s2)c(OC)c1OC | Con1 | PCR |  | 50 µM
N#Cc1c(Nc2ccc([N+](=O)[O-])cc2)s[nH]c1=O |  | replicon |  | >50 µM
COc1cccc(Cc2cccc(NC(N)=S)c2)c1 |  | replicon |  | <1 µM
C=CC[C@](C)(NC(=O)[C@H]1C[C@@H](Oc2nccc3c(SC)c(OC)ccc23)CN1C(=O)[C@@H](NC(=O)OC(C)(C)C)C(C)(C)C)C(=O)NS(=O)(=O)C1CC1 | BMS | replicon |  | <0.1 µM
Cc1cc(I)ccc1Nc1s[nH]c(=O)c1C#N |  | replicon |  | 10–50 µM
COC(=O)c1ccc2c(C3CCCCC3)c3n(c2c1)CC(O)Cc1ccccc1-3 |  | replicon |  | 0.01–1 µM
N#Cc1c(Nc2cccc(Cl)c2Cl)s[nH]c1=O |  | replicon |  | >50 µM
COc1nc(N)nc2c1ncn2[C@@H]1O[C@H](COP(=O)(N[C@@H](C)C(=O)OCC(C)(C)C)Oc2cccc3ccccc23)[C@@H](O)[C@@]1(C)O | 1a | PCR | 24 h | 0.012 µM
CCCCCCC1CCC(c2ccc(NC(N)=S)cc2)CC1 |  | replicon |  | <1 µM
CCC[C@H](NC(=O)[C@@H]1C2CCCC2CN1C(=O)[C@@H](NC(=O)[C@@H](NC(=O)c1cnccn1)C(C)CC)C(C)(C)C)C(=O)C(=O)NC1CC1 |  | replicon |  | 1.2 µM
N#Cc1c(Nc2cccnc2)s[nH]c1=O |  | replicon |  | 10–50 µM
N#Cc1cccc(-c2cnc3nc(N)nc(N4CCOCC4)c3n2)c1 |  |  |  | 1–10 µM
CCC[C@H](NC(=O)[C@@H]1[C@H]2CCC[C@H]2CN1C(=O)[C@@H](NC(=O)[C@@H](NC(=O)c1cnccn1)C1CCCCC1)C(C)(C)C)C(=O)C(=O)NC1CC1 |  | replicon |  | 0.31 µM
CN(C)CCNC(=O)C1Cc2ccccc2-c2c(C3CCCCC3)c3ccc(C(=O)NS(=O)(=O)N(C)C)cc3n2C1 |  | replicon |  | 0.01–1 µM
Nc1nc(N2CCOCC2)c2nc(-c3ccccc3C(F)(F)F)cnc2n1 |  |  |  | 0.3–1 µM

For reference, 5 entries again:

structure	strain or isolate	method	setting	value
CCc1ccc2oc(-c3ccccc3)c(C(=O)NC)c2c1		replicon		<30 µM
N#Cc1cccc(-c2cnc3nc(N)nc(N4CCOCC4)c3n2)c1				1–10 µM
Nc1nc(N2CCOCC2)c2nc(-c3ccccc3C(F)(F)F)cnc2n1				0.3–1 µM
CCCCCCCOc1ccc(NC(N)=S)cc1C(F)(F)F		replicon		<1 µM
COC(=O)c1ccc2c(C3CCCCC3)c3n(c2c1)CC(O)Cc1ccccc1-3		replicon		0.01–1 µM